Consider one molecule from publication PMC6346101, “The structure of the nucleoprotein of Influenza D shows that all Orthomyxoviridae nucleoproteins have a similar NP_(CORE), with or without a NP_(TAIL) for nuclear transport” (Scientific Reports, 2019).

This experiment addresses T1, human importin-α7 without its IBB domain (amino-acids 58 to 536) (human, UniProt O60684 58-536).
T1 construct: also called KPNA6; importins-α; not shown: His tag, N-terminal, cleaved
Put plainly: SEC. The note with it: both partners purified.

For GSDVPRTGAKRRVGGADDVTLGTSQPKKRGRQGAGVESSMDIETVGED (domain or fragment) [His-tagged D/NP_(TAIL) (505-D/NP-552)], the binding result is “binds”.
